# Data published in US4346087A, “Antibacterial surface active agent containing azaalkenelactam” (priority 1979, dated 1982).
# Assays:
# [1] = Metal corrosion inhibition in brake fluid A, tin-plate; conditions: 100°±2° C., 120±2 hours, blank -0.15
# [2] = Metal corrosion inhibition in brake fluid A, steel; conditions: 100°±2° C., 120±2 hours, blank -0.20
# [3] = Metal corrosion inhibition in brake fluid A, aluminum; conditions: 100°±2° C., 120±2 hours, blank +0.07
# [4] = Metal corrosion inhibition in brake fluid A, cast iron; conditions: 100°±2° C., 120±2 hours, blank -0.14
# [5] = Metal corrosion inhibition in brake fluid A, brass; conditions: 100°±2° C., 120±2 hours, blank -0.20
# [6] = Metal corrosion inhibition in brake fluid A, copper; conditions: 100°±2° C., 120±2 hours, blank +0.18
# [7] = Table 5, carboxylate derivatives […] by weight in brake fluid A
# [8] = Table 4, azaalkenelactams […] by weight in brake fluid A
Molecule,"Weight change, tin-plate [1, 7] [mg/cm^2]","Weight change, steel [2, 7] [mg/cm^2]","Weight change, aluminum [3, 7]","Weight change, cast iron [4, 7] [mg/cm^2]","Weight change, brass [5, 7]","Weight change, copper [6, 7]","Weight change, tin-plate [1, 8] [mg/cm^2]","Weight change, steel [2, 8] [mg/cm^2]","Weight change, aluminum [3, 8]","Weight change, cast iron [4, 8] [mg/cm^2]","Weight change, brass [5, 8] [mg/cm^2]","Weight change, copper [6, 8]"
CCCCCCCCCCCCN1CC[N+](CC(=O)[O-])=CC(C)C1=O (centres unmarked) [4-dodecyl-6-methyl-1-azonia-4-azacyclohept-7-en-5-one-1-acetate],-0.02,-0.03,+0.01 mg/cm^2,-0.02,0 mg/cm^2,0 mg/cm^2,,,,,,
"CCCCCCCCOCCCN1CCN=CC(C)(C)C1=O [Example 63, 4-octoxypropyl-6,6-dimethyl-3-hydro-2H-1,4-diazepin-5-one]",,,,,,,-0.02,-0.01,+0.03 mg/cm^2,-0.02,-0.01,+0.02 mg/cm^2
"CC1=NCCN(CCNC(=O)CCCCCCCCCCCCCCC(C)C)C(=O)C1 [Example 11, 4-isostearamidoethyl-7-methyl-3,6-dihydro-2H-1,4-diazepin-5-one]",,,,,,,0,-0.01,+0.01 mg/cm^2,-0.02,-0.03,+0.02 mg/cm^2
"CCCCCCCCCCCCN1CCN=C(C)CC1=O [Example 1, 4-dodecyl-7-methyl-3,6-dihydro-2H-1,4-diazepin-5-one]",,,,,,,0,-0.01,+0.02 mg/cm^2,-0.02,0,+0.02 mg/cm^2
CCCCCCCC(=O)NCCN1CC[N+](CC(=O)[O-])=C(C)CC1=O [4-octamidoethyl-7-methyl-1-azonia-4-azacyclohept-7-en-5-one-1-acetate],-0.03,-0.02,0 mg/cm^2,-0.01,0 mg/cm^2,0 mg/cm^2,,,,,,
CCCCCCCCCCCC(=O)OCCN1CC[N+](CC(=O)[O-])=C(C)CC1=O [4-lauroyloxyethyl-7-methyl-1-azonia-4-azacyclohept-7-en-5-one-1-acetate],-0.02,-0.01,0 mg/cm^2,-0.01,-0.01 mg/cm^2,0 mg/cm^2,,,,,,
CCCCCCCCC=CCCCCCCCCN1CC[N+](CC(=O)[O-])=CCCC1=O [4-(9-octadecenyl)-4-aza-1-azoniacyclooct-8-en-5-one-1-acetate],-0.03,-0.02,+0.02 mg/cm^2,-0.02,-0.01 mg/cm^2,0 mg/cm^2,,,,,,
"CCCCCCCCCCCCCCCCN1CCN=C(C)CC1=O [Example 5, 4-hexadecyl-7-methyl-3,6-dihydro-2H-1,4-diazepin-5-one]",,,,,,,-0.01,-0.01,0 mg/cm^2,0,-0.02,+0.02 mg/cm^2
CCCCCCCCCCCCN1CC[N+](CC(=O)[O-])=C(C)CC1=O [4-dodecyl-7-methyl-1-azonia-4-azacyclohept-7-en-5-on-1-acetate],-0.03,-0.01,0 mg/cm^2,-0.04,+0.01 mg/cm^2,0 mg/cm^2,,,,,,
CCCCCCCCc1ccc(OCCOC(C)COC(C)CN2CCN=C(C)CC2=O)cc1 (centres unmarked) [Example 19],,,,,,,-0.02,-0.02,+0.01 mg/cm^2,-0.02,0,+0.01 mg/cm^2
CCCCCCC(O)CC=CCCCCCCCC(=O)OC(C)CN1CCCN=C(C)CC1=O (centres unmarked) [Example 21],,,,,,,0,-0.02,+0.01 mg/cm^2,0,-0.01,+0.02 mg/cm^2
CCCCCCCCCCCCCCNCCN1CCC[N+](C(C)C(=O)[O-])=CC(C)C1=O (centres unmarked) [1-tetradecylaminoethyl-3-methyl-1-aza-5-azoniacyclooct-4-en-2-one-5-propionate],-0.01,-0.02,0 mg/cm^2,-0.02,-0.01 mg/cm^2,-0.01 mg/cm^2,,,,,,
CCCCCCCCCCCCCCCCCCCCCC(=O)OCCN1CC[N+](CC(=O)[O-])=CCCC1=O [4-behenoyloxyethyl-4-aza-1-azoniacyclooct-8-en-5-one-1-acetate],-0.01,-0.02,+0.01 mg/cm^2,-0.02,0 mg/cm^2,-0.01 mg/cm^2,,,,,,
CCCCCCCCCCCC(=O)NCCN1CC[N+](CC(=O)[O-])=C(C)CC1=O [4-lauramidoethyl-7-methyl-1-azonia-4-azacyclohept-7-en-5-one-1-acetate],-0.03,-0.03,+0.01 mg/cm^2,-0.02,-0.01 mg/cm^2,0 mg/cm^2,,,,,,
CCCCCCCCCCCCNCCN1CC[N+](CC(=O)[O-])=C(C)CC1=O [4-dodecylaminoethyl-7-methyl-1-azonia-4-azacyclohept-7-en-5-one-1-acetate],-0.02,-0.02,+0.01 mg/cm^2,-0.01,-0.03 mg/cm^2,-0.04 mg/cm^2,,,,,,
CCCCCCCC(=O)OCCN1CC[N+](CC(=O)[O-])=C(C)CC1=O [4-octoyloxyethyl-7-methyl-1-azonia-4-azacyclohept-7-en-5-one-1-acetate],-0.02,-0.03,+0.01 mg/cm^2,-0.02,0 mg/cm^2,+0.01 mg/cm^2,,,,,,
"CCCCCCCCOCCCN1CCN=C(C)CC1=O [Example 8, 4-octoxypropyl-7-methyl-3,6-dihydro-2H-1,4-diazepin-5-one]",,,,,,,-0.01,-0.02,+0.01 mg/cm^2,-0.02,-0.01,+0.01 mg/cm^2
"CCCCCCCCCCCC(=O)NCCN1CCN=C(C)CC1=O [Example 9, 4-lauramidoethyl-7-methyl-3,6-dihydro-2H-1,4-diazepin-5-one]",,,,,,,0,0,0 mg/cm^2,-0.01,-0.02,+0.03 mg/cm^2
"CCCCCCCCCCCCCCNCCN1CC[N+](C(C)C(=O)[O-])=CC(C)(C)C1=O (centres unmarked) [4-tetradecylaminoethyl-6,6-dimethyl-1-azonia-4-azacyclohept-7-en-5-one-1-propionate]",-0.03,-0.01,+0.01 mg/cm^2,0,-0.02 mg/cm^2,-0.02 mg/cm^2,,,,,,
"4-behenoyloxypropyl-6-methyl-2,3,6,7-tetrahydro-1,4-diazocin-5-one [Example 68]",,,,,,,-0.01,-0.02,+0.01 mg/cm^2,-0.02,-0.01,+0.02 mg/cm^2
"CCCCCCCCCCCCN1CCN=CC(C)C1=O (centres unmarked) [Example 42, 4-dodecyl-6-methyl-3,6-dihydro-2H-1,4-diazepin-5-one]",,,,,,,-0.02,-0.01,+0.01 mg/cm^2,0,-0.02,+0.01 mg/cm^2
CCCCCCCCCCCCNCCCN1CCC[N+](CC(=O)[O-])=C(C)CC1=O [1-dodecylaminopropyl-4-methyl-1-aza-5-azoniacyclooct-4-en-2-one-5-acetate],,-0.03,+0.02 mg/cm^2,-0.02,-0.02 mg/cm^2,-0.01 mg/cm^2,,,,,,
